Results as given in patent publication US9617262B2, “Antibacterial cyclopental[C]pyrrole substituted 3,4-dihydro-1H-[1,8]naphthyridinones” (Janssen Sciences Ireland UC, priority 2011, dated 2017).

Chains of the proteins cited; added tags and fusions are not shown.
UniProt Q6GI75, whole entry: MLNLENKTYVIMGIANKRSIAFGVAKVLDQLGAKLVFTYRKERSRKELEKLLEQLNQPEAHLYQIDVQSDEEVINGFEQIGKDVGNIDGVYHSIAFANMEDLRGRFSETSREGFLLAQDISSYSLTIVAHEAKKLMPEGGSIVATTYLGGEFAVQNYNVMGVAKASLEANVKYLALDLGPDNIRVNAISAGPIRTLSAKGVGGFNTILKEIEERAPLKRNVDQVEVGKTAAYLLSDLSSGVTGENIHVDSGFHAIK

Experiments:
[1] = molecular target: S. aureus ATCC 29213 FabI (Staphylococcus aureus (strain MRSA252), UniProt Q6GI75); assay: Staphylococcus aureus FabI enzyme inhibition assay; settings: pH 6.5, 30 minutes at room temperature
Method: FabI enzyme inhibition assays were carried out in half-area, 384-well microtitre plates. Compounds were evaluated in 40-μl assay mixtures containing 100 mM NaADA, pH 6.5 (ADA=N-[2-acetamido]-2iminodiacetic acid), 250 μM crotonoyl-CoA, 625 μM NADH and 50 μg/ml S. aureus ATCC 29213 FabI. Inhibitors were typically varied over the range of 50 to 0.39 μM. The reaction mixtures were incubated for 30 minutes at room temperature and the reaction was stopped by adding 200 mM Tris buffer (pH 9.0) to create a pH-shift. The consumption of NADH was monitored by measuring the change in absorbance at […]. By comparing sample readings to those of negative (absence of compound) and positive (absence of enzyme) controls, the percent inhibition of enzymatic activity of the compounds was determined. A best-fit curve is fitted by a minimum of squares method. From this an IC50-value (expressed in μg/ml), resulting in 50% inhibition of enzymatic activity, was obtained.

[2] = system: Escherichia coli ATCC 25922; reference strain; assay: Antimicrobial spectrum, broth microdilution MIC; type: cell-based; settings: E. coli ATCC 25922
Method: (§1) Minimum Inhibitory Concentrations (MICs) were determined in accordance with the Clinical and Laboratory Standards Institute (CLSI) methodology against aerobic bacteria (CLSI M07-A8) (see Clinical and Laboratory Standards Institute. 2009. Methods for dilution antimicrobial susceptibility tests for bacteria that grow aerobically. CLSI document M07-A8, Vol. 29, No. 2.) by the broth microdilution method with cation-adjusted Mueller-Hinton broth (CA-MHB) medium for the majority of organisms, except for Haemophilus influenza, where Haemophilis test medium (HTM) broth was used. Descriptions of the individual organisms can be found in the table. Where possible, ATCC standard strains were tested.
(§2) The inoculum density for the susceptibility testing was standardized to give a final inoculum of approximately 5×10^5 CFU/mL. The broth MIC was determined as the lowest concentration of drug that prevented visible growth after 16-24 hours (species dependent) of incubation at 35° C.-37° C.
(§3) Stock solutions of the compounds were prepared in DMSO at concentrations of 1 mg/mL. Linezolid was prepared in DMSO at a concentration of 2 mg/mL. Stock solutions of all compounds were diluted into CA-MHB to give a range of two-fold dilutions, depending upon the sensitivity of the organism being tested.

[3] = system: Haemophilus influenzae ATCC 49247; reference strain; assay: Antimicrobial spectrum, broth microdilution MIC; type: cell-based; settings: H. influenza ATCC 49247
Method: as §1, §2, §3

[4] = system: Moraxella catarrhalis ATCC 8176; b-lactamase negative; assay: Antimicrobial spectrum, broth microdilution MIC; type: cell-based; settings: M. catarrhalis ATCC 8176
Method: as §1, §2, §3

[5] = system: Staphylococcus aureus ATCC 29213; reference strain MSSA; assay: Antimicrobial spectrum, broth microdilution MIC; type: cell-based; settings: S. aureus ATCC 29213
Method: as §1, §2, §3

[6] = system: Staphylococcus aureus ATCC 43300; reference strain MRSA; assay: Antimicrobial spectrum, broth microdilution MIC; type: cell-based; settings: S. aureus ATCC 43300
Method: as §1, §2, §3

[7] = system: Staphylococcus aureus NRS119; LZD-R; assay: Antimicrobial spectrum, broth microdilution MIC; type: cell-based; settings: S. aureus NRS119
Method: as §1, §2, §3

[8] = system: Staphylococcus aureus NRS120; LZD-R; assay: Antimicrobial spectrum, broth microdilution MIC; type: cell-based; settings: S. aureus NRS120
Method: as §1, §2, §3

[9] = system: Staphylococcus aureus NRS121; LZD-R; assay: Antimicrobial spectrum, broth microdilution MIC; type: cell-based; settings: S. aureus NRS121
Method: as §1, §2, §3

[10] = system: Escherichia coli Tol C mutant; assay: Antimicrobial spectrum, broth microdilution MIC; settings: E. coli tolC mutant
Method: as §1, §2, §3

[11] = In vivo pharmacokinetic and oral bioavailability; settings: male Swiss mice
Method: The in vivo pharmacokinetics and oral bioavailability of the compound of the examples was/is investigated in male Swiss mice (fed) following single intravenous (i.v.) bolus and oral (p.o.) administration. For the i.v. and p.o. solution formulations, the compound was/is dissolved in a 20% HP-β-CD solution. The pH of the formulations was/is around pH 4. All i.v. formulations were isotonic.

[12] = system: Methicillin-sensitive Staphylococcus aureus strain ATCC 29213; assay: In vivo efficacy, peritonitis model of S. aureus infection; settings: PO, Sol 20% CD + 1HC1, IP infection, inoculum 8.9 log10, female Swiss albino mice, 3 days post-infection
Text: The concept of studying the in vivo effect of an antibacterial compound by treating intraperitoneally infected mice was introduced in 1911 for optochin against pneumococci (Morgenroth and Levy, 1911). The popularity of the model comes from the ease of its use with short-duration experiments, reproducible infections and simple end-points.
Methicillin-sensitive Staphylococcus aureus strain ATCC 29213 was used to infect female Swiss albino mice. A Brain Heart Infusion (BHI) broth bacterial culture was inoculated the day before infection, incubated at 37° C. overnight and diluted in fresh BHI broth to the desired concentration. I.p. injection of ˜5×10^8-5×10^9 colony forming units (CFU) was performed in either of the lateral lower quadrants of the abdomen. After inoculation, mice were kept in their cages under daily observation for development of signs of infection or death. For the treatment of mice, both the p.o. and i.v. routes were used and each mouse was treated individually by gavage or by i.v. injection. Both solutions (p.o. and i.v.) and suspensions (p.o.) were tested in this model. The parameter used for monitoring the course of infection and the effect of treatment was death or survival of the animals over 3 days post-infection. […]

SMILES: O=C1CCc2cc(C#CC(=O)N3CC4C=C(c5ccccc5)CC4C3)cnc2N1 (centres unmarked)
- FabI IC50 [1]: 0.80 µg/mL

SMILES: NC(=O)C1=CC2CN(C(=O)/C=C/c3cnc4c(c3)CCC(=O)N4)CC2C1 (centres unmarked)
- FabI IC50 [1]: 2.93 µg/mL

SMILES: O=C1CCc2cc(/C=C/C(=O)N3CC4C=C(c5ccc(Cl)s5)CC4C3)cnc2N1 (centres unmarked)
- FabI IC50 [1]: 0.99 µg/mL

SMILES: CN(C)C(=O)C1=CC2CN(C(=O)/C=C/c3cnc4c(c3)CCC(=O)N4)CC2C1 (centres unmarked)
- FabI IC50 [1]: 1.62 µg/mL

SMILES: O=C1CCc2cc(/C=C/C(=O)N3C[C@@H]4CC(c5ccncc5)=C[C@@H]4C3)cnc2N1 (single isomer, unassigned)
- FabI IC50 [1]: 0.44 µg/mL
- MIC90 [2]: 8 µg/mL (≈ 20.7 µM)
- MIC90 [3]: 0.5 µg/mL (≈ 1.29 µM)
- MIC90 [4]: 0.12 µg/mL (≈ 0.311 µM)
- MIC90 [5]: 0.03 µg/mL (≈ 0.0776 µM)
- MIC90 [6]: 0.03 µg/mL (≈ 0.0776 µM)
- MIC90 [7]: 0.06 µg/mL (≈ 0.155 µM)
- MIC90 [8]: 0.06 µg/mL (≈ 0.155 µM)
- MIC90 [9]: 0.06 µg/mL (≈ 0.155 µM)
- MIC90 [10]: 1 µg/mL (≈ 2.59 µM)

SMILES: N#Cc1ccc(C2=CC3CN(C(=O)/C=C/c4cnc5c(c4)CCC(=O)N5)CC3C2)s1 (centres unmarked)
- FabI IC50 [1]: 0.63 µg/mL

SMILES: O=C1CCc2cc(/C=C/C(=O)N3CC4C=CCC4C3)cnc2N1 (centres unmarked)
- FabI IC50 [1]: 0.83 µg/mL

SMILES: O=C1CCc2cc(/C=C/C(=O)N3C[C@@H]4CC(O)(c5ccccc5)C[C@@H]4C3)cnc2N1 (some centres unmarked)
- FabI IC50 [1]: 2.55 µg/mL

SMILES: O=C1CCc2cc(/C=C/C(=O)N3CC4C=C(Cc5ccccc5)CC4C3)cnc2N1 (centres unmarked)
- FabI IC50 [1]: 0.60 µg/mL

SMILES: Cc1csc(C2=CC3CN(C(=O)/C=C/c4cnc5c(c4)CCC(=O)N5)CC3C2)c1 (centres unmarked)
- FabI IC50 [1]: 0.63 µg/mL

SMILES: CCOC(=O)C1=CC2CN(C(=O)/C=C/c3cnc4c(c3)CCC(=O)N4)CC2C1 (centres unmarked)
- FabI IC50 [1]: 0.54 µg/mL

SMILES: COc1ccncc1C1=CC2CN(C(=O)/C=C/c3cnc4c(c3)CCC(=O)N4)CC2C1 (centres unmarked)
- FabI IC50 [1]: 0.54 µg/mL

SMILES: COc1ccccc1C1=CC2CN(C(=O)/C=C/c3cnc4c(c3)CCC(=O)N4)CC2C1 (centres unmarked)
- FabI IC50 [1]: ~0.6 µg/mL

SMILES: O=C1CCc2cc(/C=C/C(=O)N3CC4C=C(c5cn[nH]c5)CC4C3)cnc2N1 (centres unmarked)
- FabI IC50 [1]: 0.54 µg/mL

SMILES: O=C1CCc2cc(/C=C/C(=O)N3CC4C=C(c5ccsc5Cl)CC4C3)cnc2N1 (centres unmarked)
- FabI IC50 [1]: 0.76 µg/mL

SMILES: O=C1CCc2cc(/C=C/C(=O)N3CC4C=C(c5cccnc5Cl)CC4C3)cnc2N1 (centres unmarked)
- FabI IC50 [1]: 0.43 µg/mL

SMILES: Cc1nnc(C2=CC3CN(C(=O)/C=C/c4cnc5c(c4)CCC(=O)N5)CC3C2)s1 (centres unmarked)
- FabI IC50 [1]: 0.44 µg/mL

SMILES: CCC1=CC2CN(C(=O)/C=C/c3cnc4c(c3)CCC(=O)N4)CC2C1 (centres unmarked)
- FabI IC50 [1]: 0.36 µg/mL

SMILES: O=C1CCc2cc(/C=C/C(=O)N3C[C@H]4CC(c5ccsc5)=C[C@H]4C3)cnc2N1
- FabI IC50 [1]: 0.46 µg/mL
- MIC90 [2]: >8 µg/mL
- MIC90 [3]: >8 µg/mL
- MIC90 [4]: 0.25 µg/mL (≈ 0.639 µM)
- MIC90 [5]: 0.03 µg/mL (≈ 0.0766 µM)
- MIC90 [6]: 0.03 µg/mL (≈ 0.0766 µM)
- MIC90 [7]: 0.03 µg/mL (≈ 0.0766 µM)
- MIC90 [8]: 0.03 µg/mL (≈ 0.0766 µM)
- MIC90 [9]: 0.06 µg/mL (≈ 0.153 µM)
- MIC90 [10]: >8 µg/mL
- Plasma clearance Cl ([11]; i.v. 2.5 mg/kg): 8.17 mL/min/kg
- Vdz ([11]; i.v. 2.5 mg/kg): 0.9 L/kg
- C0 ([11]; i.v. 2.5 mg/kg, 20% HP-β-CD solution): 4524 ng/mL
- Oral bioavailability ([11]; p.o. 10 mg/kg vs i.v. 2.5 mg/kg): 59%
- % Survival ([12]; QD 1 mpk): 57%
- % Survival ([12]; QD 5 mpk): 100%

SMILES: Cc1noc(C)c1C1=CC2CN(C(=O)/C=C/c3cnc4c(c3)CCC(=O)N4)CC2C1 (centres unmarked)
- FabI IC50 [1]: 0.51 µg/mL

In brackets after ≈: the same amount, converted by molar mass.
